Pooled drug test results. Numbers come from NIAID ChemDB, via PubChem.

MIC bound: limit read from a one-dose screen. ICn is the concentration giving n% inhibition. Rows are shuffled and stem from different studies. An empty or dashed field is not shown. ECn is the concentration giving n% inhibition of infection, replication or growth. Inhibition is in % at the dose shown (toxicity tests: loss of growth or viability). A number after MIC or MFC names an inhibition level or a share of isolates.

| structure | mutations | read by | dose | cell line | protein | test | strain or isolate | read-out | species | result |
|---|---|---|---|---|---|---|---|---|---|---|
| Cn1cc2ccc([N+](=O)[O-])cc2n1 |  |  |  |  |  | culture | H37Rv | MIC | Mycobacterium tuberculosis | 100 µg/mL |
| OCc1ccccc1Sc1ccccc1CNCCNCc1ccc(C(F)(F)F)cc1 |  |  |  |  |  | culture |  | MIC | Mycobacterium tuberculosis | 25 µM |
| CCO/N=C/c1ccc(OCCC2CCN(c3ccc(C)nn3)CC2)cc1 |  | neutral red |  | KB |  | culture | 1794 (ICAM-1 receptor group 40) | EC50 | Rhinovirus | 0.001 µM |
| COc1ccccc1CCNCCNC12CC3CC(CC(C3)C1)C2 |  |  |  |  |  | culture |  | MIC | Mycobacterium tuberculosis | 25 µM |
| C=CCNC(=O)c1cncc(C(=O)O)c1 |  | BACTEC | 12.5 µg/mL |  |  | culture | H37Rv | inhibition | Mycobacterium tuberculosis | 10% |
| CCCCCCCCCCCNCCNCCc1ccccc1F |  |  |  |  |  | culture |  | MIC | Mycobacterium tuberculosis | 50 µM |
| COc1cccc(N2CCN(c3cncc(-c4ccc(C(F)(F)F)cc4)n3)CC2)c1 |  |  | 1 µM |  | UL97 kinase | target |  | inhibition | Cytomegalovirus | <50% |
| Cc1ccnc2c1NC(=O)c1cccnc1N2C1CC1 | RT-M41L T215Y |  |  | MT-4 |  | culture |  | EC95 | HIV-1 | 0.2 µM |
| Cc1ccc(Nc2ccc3c4c2C(=O)c2ccccc2-c4c(-c2ccccc2)c(=O)n3C)c(S(=O)(=O)O)c1.N |  |  |  |  |  | culture | H37Rv | MIC | Mycobacterium tuberculosis | 50 µg/mL |
| CCC1=C(c2ccc(OC)cc2)C(C)(C)Oc2cc(O)c(CN3CCCC3)cc21 |  | BACTEC |  |  |  | culture | H37Rv | MIC | Mycobacterium tuberculosis | 12.5 µg/mL |
| CC(=O)OC/C=C/COC(C)=O |  |  |  |  |  | culture | H37Rv | MIC | Mycobacterium tuberculosis | 50 µg/mL |
| CC(C)NCCNC[C@]1(C)CCC[C@]2(C)c3ccc(C(C)C)cc3CC[C@@H]12 |  |  |  |  |  | culture |  | MIC | Mycobacterium tuberculosis | 50 µM |
| Cc1ccc(NC(=O)c2ccc([N+](=O)[O-])cc2)cc1Cl |  | BACTEC | 12.5 µg/mL |  |  | culture | H37Rv | inhibition | Mycobacterium tuberculosis | 77% |
| CN(C)c1ccc(-c2cncc(N3CCN(c4ccc(Cl)cc4)CC3)n2)cc1 |  |  | 10 µM |  | UL97 kinase | target |  | inhibition | Cytomegalovirus | >15% |
| CCCCCCCCCCCNc1nnc(NC(=O)c2ccc(C(F)(F)F)cc2)s1 |  |  |  |  | Polymerase | target |  | IC50 | Human cytomegalovirus | >25 µM |
| Cc1ccc(-c2cncc(N3CCN(c4ccccc4)CC3)n2)cc1 |  |  |  |  | UL97 kinase | target |  | IC50 | Cytomegalovirus | <10 µM |
| Cc1cc(C)c(CCl)c(C)c1CCl |  |  |  |  |  | culture | H37Rv | MIC | Mycobacterium tuberculosis | >100 µg/mL |
| O=c1[nH]cc(Cn2cccc3c(=O)ncnc2-3)c(=O)[nH]1 |  | resazurin |  |  |  | culture | H37Rv | MIC bound | Mycobacterium tuberculosis | >6.25 µg/mL |
| Nc1ccnc2ccccc12 |  |  |  |  |  | culture | H37Rv | MIC | Mycobacterium tuberculosis | >100 µg/mL |
| Cc1onc(-c2ccccc2Cl)c1C1=N/C(=C\c2cc(Cl)cc(Cl)c2O)C(=O)O1 |  | BACTEC | 12.5 µg/mL |  |  | culture | H37Rv | inhibition | Mycobacterium tuberculosis | -16% |
| S=C(Nc1ccc(I)cc1)Nc1ccc(I)cc1 |  |  |  |  |  | culture | H37Rv | MIC | Mycobacterium tuberculosis | >100 µg/mL |
| CCOC(=O)C1NC(=O)CNC1=O |  | BACTEC |  |  |  | culture | H37Rv | MIC bound | Mycobacterium tuberculosis | >12.5 µg/mL |
| O=C(Nc1nnc(NCCCN2CCCC2=O)s1)c1ccc(Cl)c(Cl)c1 |  |  |  |  | Polymerase | target |  | IC50 | Human cytomegalovirus | >25 µM |
| CC(C)CC(NC(=O)C(=O)N[C@@H](CC(C)C)C(=O)O)C(=O)O |  |  | 6.25 µg/mL |  |  | culture | H37Rv | inhibition | Mycobacterium tuberculosis | -4% |
| CN(C)C1CCc2ccc3ccccc3c2C1O.Cl |  |  |  |  |  | culture | H37Rv | MIC | Mycobacterium tuberculosis | 100 µg/mL |
| CCC(CO)NCCNCc1ccc(C(F)(F)F)cc1 |  |  |  |  |  | culture |  | MIC | Mycobacterium tuberculosis | 37.5 µM |
| COC(=O)NCc1nc2cc(Cl)c(Cl)cc2[nH]1 |  | BACTEC | 12.5 µg/mL |  |  | culture | H37Rv | inhibition | Mycobacterium tuberculosis | 3% |
| CCC(CC)[C@H](NC(C)=O)[C@@H]1[C@H](O)[C@@H](C(=O)O)C[C@H]1N=C(N)N |  |  |  | MDCK |  | culture | B/Harbin/07.94 | EC50 | Influenza B virus | 0.12 µM |
| C#CC[C@@H](C(=O)N[C@H](/C=C/C(=O)OCC)C[C@@H]1CCNC1=O)n1cccc(NC(=O)c2cc(C)on2)c1=O |  | cytopathic effect / XTT | 0.204 µM | H1-HELA |  | culture | Serotype 14 | inhibition | Rhinovirus | 90% |
| CC(=O)c1cccc(-c2cncc(N3CCN(c4cccc(C)c4C)CC3)n2)c1 |  |  | 10 µM |  | UL97 kinase | target |  | inhibition | Cytomegalovirus | >15% |
| O=C(Nc1nnc(NCCc2c[nH]c3ccccc23)s1)c1ccc(S(=O)(=O)F)cc1 |  |  |  |  | Polymerase | target |  | IC50 | Human cytomegalovirus | <25 µM |
| CC(O)c1cccc(N)c1 |  |  |  |  |  | culture | H37Rv | MIC | Mycobacterium tuberculosis | 100 µg/mL |
| CCCCCCCCCCCNCCNCc1ccc(OC)cc1OC |  |  |  |  |  | culture |  | MIC | Mycobacterium tuberculosis | 25 µM |
| N#Cc1ccc(C(=O)Nc2nnc(NCCCNC3CCCCC3)s2)cc1 |  |  |  |  | Polymerase | target |  | IC50 | Human cytomegalovirus | <25 µM |
| CCCCC(CC)CN1CN(CC(CC)CCCC)CC(C)(NCCNCc2ccc(F)cc2)C1 |  |  |  |  |  | culture |  | MIC | Mycobacterium tuberculosis | 50 µM |
| CC(C)CC1N=C(NN=C2CCCCC2)SP1(=O)NNc1ncccn1 |  | BACTEC | 12.5 µg/mL |  |  | culture | H37Rv | inhibition | Mycobacterium tuberculosis | 0% |
| Cc1ccc(C(=O)Nc2nnc(NCCNc3ccccc3)s2)cc1 |  |  |  |  | Polymerase | target |  | IC50 | Human cytomegalovirus | >25 µM |
| Cc1ccc(NC(=S)NNC(=O)CN2C(=O)c3ccccc3C2=O)cc1 |  | BACTEC |  |  |  | culture | H37Rv | MIC bound | Mycobacterium tuberculosis | >12.5 µg/mL |
| Fc1ccc(N2CCCCC2)c(NC(=S)c2ccncc2)c1 |  | kinase activity | 10 µM |  | Ret (V804M) | host protein |  | inhibition |  | 6% |
| O=C(Nc1nnc(NCc2ccc3c(c2)OCO3)s1)c1cc(F)cc(F)c1 |  |  |  |  | Polymerase | target |  | IC50 | Human cytomegalovirus | >25 µM |
| CC1CCC(CC(=O)O)(CC(=O)O)CC1 |  |  |  |  |  | culture | H37Rv | MIC | Mycobacterium tuberculosis | >100 µg/mL |
| Nc1cc(N)c2[nH]c(=O)c3ccccc3c2c1 |  | BACTEC |  |  |  | culture | H37Rv | MIC bound | Mycobacterium tuberculosis | >12.5 µg/mL |
| c1ccc(OCCSCCOc2ccccc2)cc1 |  |  |  |  |  | culture | H37Rv | MIC | Mycobacterium tuberculosis | >100 µg/mL |
| CCn1c2ccc(N)cc2c2c(N)c(-n3cccc3)ccc21 |  | BACTEC |  |  |  | culture | H37Rv | MIC | Mycobacterium tuberculosis | 6.25 µg/mL |
| CCOC(=O)C1=C(C)NC(C)=C(C(=O)OCC)C1C |  |  |  |  |  | culture | H37Rv | MIC | Mycobacterium tuberculosis | 50 µg/mL |
| Cn1cc(C(=O)C2CCCCC2)ccc1=O |  | resazurin |  |  |  | culture | H37Rv | MIC bound | Mycobacterium tuberculosis | >6.25 µg/mL |
| O=C(O)COc1cccc(Cl)c1 |  |  |  |  |  | culture | H37Rv | MIC | Mycobacterium tuberculosis | >100 µg/mL |
| O=C(O)CNC(CO)C(=O)O |  | BACTEC | 12.5 µg/mL |  |  | culture | H37Rv | inhibition | Mycobacterium tuberculosis | 21% |
| c1ccc(C2CCN(c3cncc(-c4ccoc4)n3)CC2)cc1 |  |  | 10 µM |  | UL97 kinase | target |  | inhibition | Cytomegalovirus | >15% |
| CCCCOC(OCCCC)C(C)NCCO |  |  |  |  |  | culture | H37Rv | MIC | Mycobacterium tuberculosis | >100 µg/mL |
| N/C(=N/c1nc(N)cc(=O)[nH]1)Nc1ccc(S(N)(=O)=O)cc1 |  | BACTEC | 12.5 µg/mL |  |  | culture | H37Rv | inhibition | Mycobacterium tuberculosis | 0% |
| Fc1ccc(N2CCN(c3cncc(-c4cc5ccccc5s4)n3)CC2)c(F)c1 |  |  | 1 µM |  | UL97 kinase | target |  | inhibition | Cytomegalovirus | <50% |
| C1CCNCC1.S=C(S)N1CCCCC1 |  |  |  |  |  | culture | INH-r | MIC | Mycobacterium tuberculosis | 0.4 µg/mL |
| O=Nn1c2ccccc2c2cc([N+](=O)[O-])ccc21 |  |  |  |  |  | culture | H37Rv | MIC | Mycobacterium tuberculosis | >100 µg/mL |
| O=C(Nc1nnc(NCCSc2ccccc2)s1)c1ccc(I)cc1 |  |  |  |  | Polymerase | target |  | IC50 | Human cytomegalovirus | >25 µM |
| O/N=C/c1c[nH]c2ccccc12 |  |  |  |  |  | culture | H37Rv | MIC | Mycobacterium tuberculosis | 100 µg/mL |
| CCCCCCCC/C=C/CCCCCCCC(=O)Nc1nnc(NC2CCCc3ccccc32)s1 |  |  |  |  | Polymerase | target |  | IC50 | Human cytomegalovirus | <25 µM |
| C=CCc1ccc(OC)c(OC)c1 |  | turbidity |  |  |  | culture | 2559 | MIC90 | Candida parapsilosis | 345 µg/mL |
| Nc1ccccc1CCC(=O)c1ccccc1 |  |  |  |  |  | culture | H37Rv | MIC | Mycobacterium tuberculosis | 25 µg/mL |
| CC(C)(C)c1cc(C(C)(C)C)c(=O)oc(=O)c1 |  | BACTEC |  |  |  | culture | H37Rv | MIC bound | Mycobacterium tuberculosis | >12.5 µg/mL |
| CC(=O)NCCNc1nnc(NC(=O)c2ccc3c(c2)C(=O)OC3=O)s1 |  |  |  |  | Polymerase | target |  | IC50 | Human cytomegalovirus | >25 µM |
| S=C(S)NCCN1CCNCC1 |  | BACTEC | 12.5 µg/mL |  |  | culture | H37Rv | inhibition | Mycobacterium tuberculosis | -1% |
| C=CC(C)NCc1cc(Nc2ccnc3cc(Cl)ccc23)ccc1O.Cl |  |  |  |  |  | culture | H37Rv | MIC | Mycobacterium tuberculosis | 50 µg/mL |
| Cc1ccc(N2CCN(c3cncc(-c4ccc(F)c(Cl)c4)n3)CC2)cc1C |  |  | 10 µM |  | UL97 kinase | target |  | inhibition | Cytomegalovirus | >15% |
| CC1(C)[C@H]2CC[C@@H](CNCCNCCC3=CCCCC3)[C@@H]1C2 |  |  |  |  |  | culture |  | MIC | Mycobacterium tuberculosis | 25 µM |
| CN(C)c1ccc(-c2cncc(N3CCN(c4ccccc4)CC3)n2)cc1 |  |  | 1 µM |  | UL97 kinase | target |  | inhibition | Cytomegalovirus | <50% |
| C=CC(O)CSCCCCCCCCCCCCCCCC |  |  |  |  |  | culture | H37Rv | MIC | Mycobacterium tuberculosis | >100 µg/mL |
| C[C@H](Cc1ccc(O)c(O)c1)[C@@H](C)Cc1ccc(O)c(O)c1 |  | broth dilution |  |  |  | culture | CCC 115-2000 | MIC80 | Candida glabrata | 250 µg/mL |
| CCOC(=O)CO |  |  |  |  |  | culture | H37Rv | MIC | Mycobacterium tuberculosis | >100 µg/mL |
| C/C(=N\NC(=O)c1ccccc1O)c1c(O)cc(C)oc1=O |  | BACTEC |  |  |  | culture | H37Rv | MIC | Mycobacterium tuberculosis | ≥12.5 µg/mL |
| COc1ccc(CCNCCNCCc2ccccc2F)cc1 |  |  |  |  |  | culture |  | MIC | Mycobacterium tuberculosis | 12.5 µM |
| O=c1c(Cl)cc2nc3ccccc3sc-2c1Cl |  | BACTEC | 12.5 µg/mL |  |  | culture | H37Rv | inhibition | Mycobacterium tuberculosis | 99% |
| CC(=O)Nc1cccc2ccc(O)cc12 |  |  |  |  |  | culture | H37Rv | MIC | Mycobacterium tuberculosis | 25 µg/mL |

For reference, 7 entries again:

{"structure": "C=CCNC(=O)c1cncc(C(=O)O)c1", "read by": "BACTEC", "dose": "12.5 µg/mL", "test": "culture", "strain or isolate": "H37Rv", "read-out": "inhibition", "species": "Mycobacterium tuberculosis", "result": "10%"}
{"structure": "CN(C)c1ccc(-c2cncc(N3CCN(c4ccc(Cl)cc4)CC3)n2)cc1", "dose": "10 µM", "protein": "UL97 kinase", "test": "target", "read-out": "inhibition", "species": "Cytomegalovirus", "result": ">15%"}
{"structure": "CCCCCCCCCCCNCCNCCc1ccccc1F", "test": "culture", "read-out": "MIC", "species": "Mycobacterium tuberculosis", "result": "50 µM"}
{"structure": "CCOC(=O)CO", "test": "culture", "strain or isolate": "H37Rv", "read-out": "MIC", "species": "Mycobacterium tuberculosis", "result": ">100 µg/mL"}
{"structure": "C/C(=N\\NC(=O)c1ccccc1O)c1c(O)cc(C)oc1=O", "read by": "BACTEC", "test": "culture", "strain or isolate": "H37Rv", "read-out": "MIC", "species": "Mycobacterium tuberculosis", "result": "≥12.5 µg/mL"}
{"structure": "COC(=O)NCc1nc2cc(Cl)c(Cl)cc2[nH]1", "read by": "BACTEC", "dose": "12.5 µg/mL", "test": "culture", "strain or isolate": "H37Rv", "read-out": "inhibition", "species": "Mycobacterium tuberculosis", "result": "3%"}
{"structure": "CC(C)CC1N=C(NN=C2CCCCC2)SP1(=O)NNc1ncccn1", "read by": "BACTEC", "dose": "12.5 µg/mL", "test": "culture", "strain or isolate": "H37Rv", "read-out": "inhibition", "species": "Mycobacterium tuberculosis", "result": "0%"}